Among the data in ChEMBL document CHEMBL1201862, “PubChem BioAssay data set” (2004) are Potency values, retold here.

The list shows a part of the results. Only a part of the results of these assays is listed, not drawn at random. Activity calls are given as the source filed them. The rule behind the calls is not given here.

The experiment can be described thus: qHTS for Stage-Specific Inhibitors of Vaccinia Orthopoxvirus: Venus Reporter Primary qHTS. Type of experiment: functional. (Quantitative high-throughput screening tests each substance at several concentrations.)
For the compound `O=C(OC1CN2CCC1CC2)C12CC3CC(CC(C3)C1)C2` (stereo unspecified), the Potency entry is “inactive”.
